Data as given in PubChem BioAssay AID624099 (ICCB-Longwood, 2012)

- Screen: 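Knock-downs relieving repression by E2 of an HPV18 LCR luciferase reporter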 (primary screen)
- Cell system: human C33A cervical carcinoma cells (HPV-negative) stably expressing BPV1 E2 and an HPV18 LCR luciferase reporter
- Knock-down reagent: siRNA pool against human genes, 40 nM
- Time to read-out: 72 h
- Detection: 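HPV18 LCR reporter light per well, converted to plate-wise z-scores that exclude control wells, and averaged over triplicate plates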
- Reading the numbers: mean z-score and z-score: higher = stronger reporter signal, weaker E2 silencing
- Call rule: 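Mean z ≥ 2 together with z ≥ 2 in two or more of the three replicates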
In all, the deposit lists about 21,000 reagents; this is a part drawn at random. Of all reagents, 497 (2.4%) were called active. 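Higher z means weaker E2 silencing; only reporter increases were scored, and knock-downs that hurt cell survival may mask genuine repressor factors.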 Entries without a mark were called inactive. The numbers tell different reagents against one gene apart.

| gene knocked down | reagent | mean z-score | z-score, replicate A | z-score, replicate B | z-score, replicate C |
| --- | --- | --- | --- | --- | --- |
| TRIP10 (GeneID 9322) | 1 | 0.44 | 0.82 | 0.17 | 0.32 |
| SLC9B2 (GeneID 133308) | 1 | 1.17 | 1.44 | 1.07 | 0.99 |
| ASCL2 (GeneID 430) | 1 | 1.1 | 1.41 | 1.06 | 0.82 |
| VNN3P (GeneID 55350) | 1 | 0.63 | 0.72 | 0.53 | – |
| RNF186 (GeneID 54546) | 1 | -1.45 | -1.36 | -1.51 | -1.49 |
| LOC387974 (retired record) (GeneID 387974) | 1 | -0.65 | -0.48 | -0.64 | -0.82 |
| LOC401860 (retired record) (GeneID 401860) | 1 | -0.19 | 0 | 0 | -0.56 |
| MED15 (GeneID 51586) | 1 | 1.17 | 1.38 | 1.26 | 0.88 |
| LOC339162 (retired record) (GeneID 339162) | 1 | -0.42 | -0.4 | -0.35 | -0.52 |
| EXOSC9 (GeneID 5393) | 1 | -0.15 | -0.16 | 0.06 | -0.34 |
| UGT2A1 (GeneID 10941) | 1 | 0.88 | 0.6 | 1.09 | 0.95 |
| EOLA1 (GeneID 91966) | 1 | -0.34 | -0.44 | -0.28 | -0.31 |
| MUC3B (GeneID 57876) | 1 | -0.12 | -0.06 | -0.23 | -0.06 |
| MUC3B (GeneID 57876) | 2 | 0.39 | 0.78 | 0.62 | -0.23 |
| CAPNS2 (GeneID 84290) | 1 | -0.28 | -0.19 | -0.28 | -0.36 |
| TAS2R39 (GeneID 259285) | 1 | 2.42 (active) | 2.91 | 1.93 | 2.42 |
| SLC67A2 (GeneID 84804) | 1 | -0.14 | -0.08 | -0.42 | 0.09 |
| OSGEP (GeneID 55644) | 1 | 0.19 | 0.46 | 0.15 | -0.03 |
| CAMTA1 (GeneID 23261) | 1 | -0.63 | -0.42 | -0.82 | -0.66 |
| ABTB3 (GeneID 121551) | 1 | -0.42 | -0.52 | -0.52 | -0.23 |
| TSSK1B (GeneID 83942) | 1 | 1.37 | 1.45 | 0.91 | 1.74 |
| SLC18A2 (GeneID 6571) | 1 | -0.04 | 0.24 | -0.14 | -0.24 |
| PCDH20 (GeneID 64881) | 1 | 0.96 | 0.88 | 1.18 | 0.83 |
| APOBEC3G (GeneID 60489) | 1 | 0.96 | 0.91 | 0.74 | 1.24 |
| HLA-L (GeneID 3139) | 1 | -1.08 | -1.04 | -1.14 | -1.05 |
| OR51B2 (GeneID 79345) | 1 | -0.37 | -0.56 | -0.58 | 0.02 |
| ARHGEF12 (GeneID 23365) | 1 | -0.28 | -0.18 | -0.3 | -0.36 |
| IL12RB1 (GeneID 3594) | 1 | 2.86 (active) | 2.87 | 3.07 | 2.64 |
| PADI4 (GeneID 23569) | 1 | -0.1 | 0.16 | -0.39 | -0.08 |
| TMEM80 (GeneID 283232) | 1 | -1.43 | -0.86 | -2.06 | -1.38 |
| SUGT1 (GeneID 10910) | 1 | 0.61 | 0.76 | 0.03 | 1.04 |
| LRRC37BP1 (GeneID 147172) | 1 | -0.74 | -1.11 | -0.65 | -0.45 |
| OR13C5 (GeneID 138799) | 1 | 0.55 | 0.78 | 0.49 | 0.38 |
| SIGLEC16 (GeneID 400709) | 1 | -1.16 | -1.24 | -1.11 | -1.11 |
| TRAPPC14 (GeneID 55262) | 1 | -1.48 | -1.61 | -1.66 | -1.17 |
| HYCC1 (GeneID 84668) | 1 | -0.02 | 0.05 | -0.04 | -0.06 |
| TEF (GeneID 7008) | 1 | -0.27 | 0.08 | -0.25 | -0.65 |
| LOC391030 (retired record) (GeneID 391030) | 1 | -0.26 | -0.3 | -0.34 | -0.15 |
| LOC388628 (retired record) (GeneID 388628) | 1 | -0.55 | -0.45 | -0.78 | -0.43 |

5 entries already listed, sorted by “mean z-score”, lowest first.
| gene knocked down | reagent | mean z-score | z-score, replicate A | z-score, replicate B | z-score, replicate C |
| --- | --- | --- | --- | --- | --- |
| CAMTA1 (GeneID 23261) | 1 | -0.63 | -0.42 | -0.82 | -0.66 |
| ABTB3 (GeneID 121551) | 1 | -0.42 | -0.52 | -0.52 | -0.23 |
| SLC67A2 (GeneID 84804) | 1 | -0.14 | -0.08 | -0.42 | 0.09 |
| OSGEP (GeneID 55644) | 1 | 0.19 | 0.46 | 0.15 | -0.03 |
| TSSK1B (GeneID 83942) | 1 | 1.37 | 1.45 | 0.91 | 1.74 |
